Each structure is given as a SMILES string.

For the series, the system named is RSV A2. The series can be described thus: In vivo inhibition study, BALB/c mouse model of RSV infection. On the set-up: species or system BALB/c mice.

For the compound `CCCN(CCC)S(=O)(=O)c1ccc(C(=O)O)cc1` [Probenecid, 4-[(dipropylamino)sulfonyl] benzoic acid], the “BAL cells/mL” value worked out at 268750 cells/mL (Females, Prophylactic 2 mg/kg, Day 3); 256250 cells/mL (Females, Prophylactic 2 mg/kg, Day 5); 75000 cells/mL (Females, Prophylactic 2 mg/kg, Day 7); 308333.333 cells/mL (Females, Prophylactic 200 mg/kg, Day 3); 280000 cells/mL (Females, Prophylactic 200 mg/kg, Day 5); 125000 cells/mL (Females, Prophylactic 200 mg/kg, Day 7). Moreover, the “BAL cells/mL” value was determined as 360000 cells/mL (Females, Treatment 2 mg/kg, Day 3); 270000 cells/mL (Females, Treatment 2 mg/kg, Day 5); 135000 cells/mL (Females, Treatment 2 mg/kg, Day 7); 312500 cells/mL (Females, Treatment 200 mg/kg, Day 3); 140000 cells/mL (Females, Treatment 200 mg/kg, Day 5); 91666.6667 cells/mL (Females, Treatment 200 mg/kg, Day 7). The “BAL cells/mL” value reads like this: (Males, Prophylactic 2 mg/kg, Day 3) 125000 cells/mL; (Males, Prophylactic 2 mg/kg, Day 5) 118750 cells/mL; (Males, Prophylactic 2 mg/kg, Day 7) 90625 cells/mL; (Males, Prophylactic 200 mg/kg, Day 3) 243750 cells/mL; (Males, Prophylactic 200 mg/kg, Day 5) 293750 cells/mL; (Males, Prophylactic 200 mg/kg, Day 7) 65625 cells/mL. Also, the “BAL cells/mL” value is, setting by setting: (Males, Treatment 2 mg/kg, Day 3) 193750 cells/mL; (Males, Treatment 2 mg/kg, Day 5) 120000 cells/mL; (Males, Treatment 2 mg/kg, Day 7) 87500 cells/mL; (Males, Treatment 200 mg/kg, Day 3) 265000 cells/mL; (Males, Treatment 200 mg/kg, Day 5) 145000 cells/mL; (Males, Treatment 200 mg/kg, Day 7) 96875 cells/mL.

The values above are taken from patent US20240327339A1, “COMPOSITIONS AND METHODS FOR TREATING AND PREVENTING VIRAL INFECTIONS” (priority 2021, published 2024).
